Results of unrelated studies side by side (data: NIAID ChemDB).

Shared fields: whole-cell or culture tests; species: Hepatitis C virus; read by: replicon; read-out: EC50

Blank or dashed fields: not listed here. ECn: concentration that inhibits the pathogen or its effect by n%. a–b is a range or a potency band. Lines come from different laboratories, so protocols vary.

smiles | strain | setting | cell line | result
N/C(=N\OC(=O)N1CCOCC1)c1c(Cl)cccc1Cl |  |  | Huh7 | 1.63 µM
CC(C)c1cccc(C(F)(F)F)c1-c1cc(-c2cccc(NC(=O)C(Cl)Cl)c2)on1 |  |  |  | ≤10 µM
CCOc1nc(NCc2ccc(F)cc2)nc2ccc(-c3ccc(NC(=O)[C@H]4CCNC4)cc3)nc12 |  |  |  | <0.1 µM
Cc1cccc(/C(N)=N/OC(=O)N2CCOCC2)c1 |  |  | Huh7 | 3.32 µM
CO[C@@H]1[C@H](O)[C@@H](CO)O[C@H]1n1cc(C#Cc2ccccn2)c(=O)[nH]c1=O |  |  | Huh7 | >300 µM
N/C(Cc1cccc2ccccc12)=N\OC(=O)N1CCOCC1 |  |  | Huh7 | 0.36 µM
C=CC1CC1(NC(=O)[C@@H]1C[C@@H](Oc2cc(-c3ccccc3)nc3cc(OC)ccc23)CN1C(=O)[C@@H](CC(=O)N1CCCCC1)C(C)(C)C)C(=O)OCC |  |  |  | 1–10 µM
Nc1nc(C2CC2)c2nc(-c3ccc(F)cc3)ccc2n1 |  |  | Huh7 | <0.3 µM
CC(C)c1cccc(C(C)C)c1-c1cc(-c2cccc(NC(=O)C(Cl)Cl)c2)on1 |  |  |  | ≤10 µM
C=CC1CC1(NC(=O)[C@@H]1C[C@@H](Oc2cc(-c3ccccc3)nc3cc(OC)ccc23)CN1C(=O)[C@@H](CC(=O)N1CCCCC1C(N)=O)C(C)(C)C)C(=O)OCC |  |  |  | >10 µM
COC(=O)/C=C/c1cn([C@@H]2O[C@H](CO)[C@@H](O)[C@H]2OC)c(=O)[nH]c1=O |  |  | Huh7 | >300 µM
CCOc1nc(NCc2ccc(F)cc2)nc2ccc(-c3ccc(N4CCC(O)C4=O)cc3)nc12 |  |  |  | <0.1 µM
C=CC1CC1(NC(=O)[C@@H]1C[C@@H](Oc2cc(-c3ccccc3)nc3cc(OC)ccc23)CN1C(=O)[C@@H](CC(=O)N1CCCc2ccccc21)C(C)(C)C)C(=O)O |  |  |  | >10 µM
CCOc1nc(NCc2nccs2)nc2ccc(-c3ccc(F)cc3)nc12 |  |  |  | <0.1 µM
CNC(=O)c1c(-c2ccc(F)cc2)oc2cc(N(C)S(C)(=O)=O)c(OCC3CC3)cc12 |  |  | Huh7 | <1 µM
CC1CCC(C(=O)N(c2cc(-c3ccc(NC(=O)c4ccccn4)s3)sc2C(=O)O)C(C)C)CC1 | 1b |  |  | <0.5 µM
COC(=O)C1=Cc2cc(OC)ccc2-c2c(C3CCCCC3)c3ccc(C(=O)NS(=O)(=O)N(C)C)nc3n2C1 | 1b |  |  | 0.001–0.5 µM
COc1c(-c2cccc3ccccc23)cnn([C@@H]2C[C@H]3C(=O)N[C@]4(C(=O)NS(=O)(=O)C5CC5)CC4/C=C\CCCCCC[C@H](NC(=O)c4cccs4)C(=O)N3C2)c1=O | 1b |  |  | 0.0002 µM
O=C(Nc1cccc(-c2cc(-c3c(Cl)cccc3OCCN3CCCCC3)no2)c1)C(Cl)Cl |  |  |  | ≤10 µM
CCOc1nc(N)nc2ccc(-c3ccc(C(=O)NC4CCCC4)cc3)nc12 |  |  | Huh7 | 0.3–1 µM
CCc1nc(N)nc2ccc(-c3ccc(N4CCCC4=O)cc3)nc12 |  |  | Huh7 | <0.3 µM
C=CCOc1cc2c(C(=O)NC)c(-c3ccc(F)cc3)oc2cc1N(C)S(C)(=O)=O |  |  | Huh7 | <1 µM
CC(C)(N)C(=O)Nc1ccc(-c2ccc3nc(N)nc(NCCS(C)(=O)=O)c3n2)cc1 |  |  | Huh7 | <0.3 µM
CNC(=O)c1c(-c2ccc(F)cc2)oc2cc(N(C)S(C)(=O)=O)c(OCc3cccc(OC)c3)cc12 |  |  | Huh7 | <1 µM
CC1=CN(c2ccc([N+](=O)[O-])cc2)[C@@H](c2ccc(C(F)(F)F)cc2)[C@@H](C)C1=O | 1b |  | Huh7 | 23.2 µM
CC1CCC(C(=O)N(c2cc(-c3cnc(NC(=O)c4cscn4)c(Cl)c3)sc2C(=O)O)C(C)C)CC1 | 1a |  |  | <0.5 µM
CNC(=O)c1c(-c2ccc(F)cc2)oc2cc(-c3ncc[nH]3)c(OC(C)C)cc12 |  |  | Huh7 | <1 µM
C=C1C(=O)O[C@@H]2[C@H]1CC[C@H](COC(=O)CC(C)C)[C@]1(O)CCC(=O)[C@@]21C |  |  | Huh7 | <2 µM
COc1ccc(C/C(N)=N/OC(=O)C(c2ccccc2)c2ccccc2)cc1OC |  |  | Huh7 | 2.29 µM
COc1cc(C(=O)N2[C@@H](c3nccs3)[C@@H](c3cnccn3)C[C@@]2(Cc2ccccn2)C(=O)O)ccc1C(C)(C)C | genotype 1b |  | Huh7 | 0.1–10 µM
CCCc1nc(N)nc2ccc(-c3ccc(NC(C)=O)cc3)nc12 |  |  | Huh7 | 0.3–1 µM
CNC(=O)c1c(-c2ccc(F)cc2)oc2cc(-c3noc(C(F)(F)F)n3)c(OC(C)C)cc12 |  |  | Huh7 | <30 µM
CCOC(=O)C12CC1/C=C\CCCCC[C@@H](CC(=O)N1CCCCC1)C(=O)N1C[C@H](Oc3cc(-c4ccccc4)nc4cc(OC)ccc34)C[C@H]1C(=O)N2 |  |  |  | >10 µM
COc1cccc(C)c1-c1cc(-c2cccc(NC(=O)C(Cl)Cl)c2)on1 |  |  |  | ≤10 µM
CCNc1cc2oc(-c3ccc(F)cc3)c(C(=O)NC)c2cc1O |  |  | Huh7 | >30 µM
CCCc1nc(N)nc2ccc(-c3ccc(F)cc3)nc12 |  |  | Huh7 | <0.3 µM
COCCOc1nc(N)nc2ccc(-c3ccc(NC(=O)OC)cc3)nc12 |  |  | Huh7 | 0.3–1 µM
N/C(=N\OC(=O)N1CCOCC1)c1ccc(Cl)cc1 |  |  | Huh7 | 1.52 µM
CCCCCc1ccc(C#Cc2cn([C@@H]3O[C@H](CO)[C@@H](O)[C@H]3OC)c(=O)[nH]c2=O)cc1 |  |  | Huh7 | >300 µM
CSc1cnccc1Nc1nc(-c2cc(Cl)ccc2F)nc2ncccc12 |  |  | Huh7 | 0.49 µM
CCCCCCCCCCCCCCCC(=O)Nc1ccn([C@H]2CC[C@@H](COP(=O)(O)O[C@H]3C[C@H](n4cc(F)c(=O)[nH]c4=O)O[C@@H]3CO)O2)c(=O)n1 | P114/ET Q80K mutation |  | Huh7 | 0.002 µM
CS(=O)(=O)Nc1ccc2c(c1)S(=O)(=O)N=C(c1c(O)c3ccccc3n(NC3CCC3)c1=O)N2 | 1a |  | Huh7 | 0.003 µM
COCC(C)N(C(=O)C1CCC(C)CC1)c1cc(-c2ccc(NC(=O)c3cn(C)cn3)cc2)sc1C(=O)O | 1b |  |  | <0.5 µM
O=C(Nc1cccc(-c2cc(-c3c(Cl)cccc3C3CCCC3)no2)c1)C(Cl)Cl |  |  |  | ≤10 µM
C=C1C(=O)O[C@@H]2[C@H]1CC[C@H](COC(=O)/C(C)=C/C)[C@]1(O)CCC(=O)[C@@]21C |  |  | Huh7 | <2 µM
CNC(=O)c1c(-c2ccc(F)cc2)oc2cc(N)c(OC(C)C)cc12 |  |  | Huh7 | <10 µM
COc1ccc2c(c1)C=C(C(=O)N1C[C@@H](C)O[C@@H](C)C1)Cn1c-2c(C2CCCCC2)c2cccnc21 | 1b |  |  | 0.5–10 µM
COC(=O)c1cnccc1Nc1nc(-c2cc(Cl)ccc2F)nc2ncccc12 |  |  | Huh7 | 19 µM
C[C@]1(O)[C@H](n2cnc3c(N)ncnc32)C[C@@](O)(C(F)(F)F)[C@H]1O |  |  | Huh7 | >50 µM
CC1CCC(C(=O)N(c2cc(-c3ccc(NC(=O)c4cscn4)s3)sc2C(=O)O)C(C)C)CC1 | 1a |  |  | <0.5 µM
O=C(CI)Nc1cccc(-c2cc(-c3c(Cl)cccc3Cl)no2)c1 |  |  |  | ≤10 µM
COc1ccc2c(O[C@@H]3C[C@H]4C(=O)N[C@@]5(C(=O)NS(=O)(=O)C6CC6)C[C@@H]5/C=C\CCCCC[C@H](CC(=O)N5CCCCC5)C(=O)N4C3)cc(-c3ccccc3)nc2c1 |  |  |  | <100 µM
CCc1nc(N)nc2ccc(-c3ccc(F)cc3)nc12 |  |  | Huh7 | <0.3 µM
CC1CCC(C(=O)N(c2cc(-c3ccc(NC(=O)c4ncccc4F)cc3)sc2C(=O)O)C(C)C)CC1 | 1b |  |  | <0.5 µM
Nc1nc(CCC2OCCCO2)c2nc(-c3ccc(F)cc3)ccc2n1 |  |  | Huh7 | 0.3–1 µM
Cc1ccc(S(=O)(=O)Nc2cc(-c3ccc(S(C)(=O)=O)cc3)sc2C(=O)O)c(C)c1 |  |  | Huh7 | 39 µM
COc1cc(C(=O)N2[C@@H](c3ncc(C)s3)[C@@H](c3cnccn3)C[C@@]2(Cc2ccsn2)C(=O)O)ccc1C(C)(C)C | genotype 1b |  | Huh7 | <0.1 µM
Fc1ccc(Cl)cc1-c1nc(Nc2ccncc2)c2cccnc2n1 |  |  | Huh7 | 0.77 µM
COc1ccc2c(O[C@@H]3C[C@H]4C(=O)N[C@]5(C(=O)O)C[C@H]5/C=C\CCCCC[C@H](CC(=O)N5CCCCC5)C(=O)N4C3)cc(-c3ccccc3)nc2c1 |  |  |  | >10 µM
O=C(O)C(=O)/C=C(\O)c1ccc(OCc2ccccc2)cc1 |  |  | Huh-7 hepatoma cells | 0.66 µM
COc1ccc(C(=O)O/N=C(\N)Cc2ccc([N+](=O)[O-])cc2)c(OC)c1 |  |  | Huh7 | 1.82 µM
CN1CCn2c(c(C3CCCCC3)c3ccc(C(=O)O)cc32)-c2ccccc21 |  | 10% FBS | Huh7 | 0.59 µM
Cc1cnccc1Nc1nc(-c2cccc(Cl)c2)nc2ncccc12 |  |  | Huh7 | 0.41 µM
CCOc1nc(NCc2ccc(F)cc2)nc2ccc(-c3ccc(NC(=O)[C@@H]4C[C@@H](O)CN4)cc3)nc12 |  |  |  | <0.1 µM
O=C(Nc1cccc(-c2cc(-c3c(F)ccc(F)c3Cl)no2)c1)C(Cl)Cl |  |  |  | ≤10 µM
NS(=O)(=O)c1ccc(CNc2nc(NCC(F)(F)F)c3nc(-c4ccc(F)c(S(N)(=O)=O)c4)ccc3n2)cc1 |  |  |  | <0.1 µM
CO[C@@H]1[C@H](O)[C@@H](CO)O[C@H]1n1cc(C#Cc2ccc(C(F)(F)F)cc2)c(=O)[nH]c1=O |  |  | Huh7 | >300 µM
CC1CCC(C(=O)N(c2cc(-c3ccc(NC(=O)c4cccs4)cc3)sc2C(=O)O)C(C)C)CC1 | 1b |  |  | <0.5 µM
COc1nc(N)nc2c1ncn2[C@@H]1O[C@H](COP(=O)(N[C@@H](C)C(=O)OC(C)C)Oc2ccccc2)[C@@H](O)[C@@]1(C)F | 2a | 83 d |  | 0.067 µM
CO[C@@H]1[C@H](O)[C@@H](CO)O[C@H]1n1cc(C#Cc2ccc(F)cc2)c(=O)[nH]c1=O |  |  | Huh7 | >300 µM
COc1cc(C(=O)N2[C@@H](c3nccs3)[C@@H](c3cnccn3)C[C@@]2(Cc2cscn2)C(=O)O)ccc1C(C)(C)C | Genotype 1A |  | Huh7 | <10 µM
C=CC1CC1(NC(=O)[C@@H]1C[C@@H](Oc2cc(-c3ccccc3)nc3cc(OC)ccc23)CN1C(=O)[C@@H](CC(=O)N1CCCC1)C(C)(C)C)C(=O)O |  |  |  | >10 µM
Nc1nc(O[C@H]2CCOC2)c2nc(-c3ccc(C(=O)NCC(F)(F)F)cc3)ccc2n1 |  |  | Huh7 | <0.3 µM
COc1cc(C(=O)N2[C@@H](c3nccs3)[C@@H](c3cnccn3)C[C@@]2(Cc2nccs2)C(=O)O)ccc1C(C)(C)C | genotype 1b |  | Huh7 | <0.1 µM
Cc1cc(-c2cc(N(C(=O)C3CCC(C)CC3)C(C)C)c(C(=O)O)s2)cnc1NC(=O)c1ccc(F)cc1 | 1b |  |  | <0.5 µM
COc1cc(C(=O)N2[C@@H](c3ncc(C)s3)[C@@H](c3cnccn3)C[C@@]2(Cn2cccn2)C(=O)O)ccc1C(C)(C)C | Genotype 1A |  | Huh7 | <10 µM
CC1CCC(C(=O)N(CC2CC2)c2cc(-c3ccc(NC(=O)c4ccn(C)n4)cc3)sc2C(=O)O)CC1 | 1a |  |  | <0.5 µM

For reference, 10 entries again:

smiles | strain | setting | cell line | result
CO[C@@H]1[C@H](O)[C@@H](CO)O[C@H]1n1cc(C#Cc2ccc(F)cc2)c(=O)[nH]c1=O |  |  | Huh7 | >300 µM
C=C1C(=O)O[C@@H]2[C@H]1CC[C@H](COC(=O)CC(C)C)[C@]1(O)CCC(=O)[C@@]21C |  |  | Huh7 | <2 µM
CC1CCC(C(=O)N(c2cc(-c3cnc(NC(=O)c4cscn4)c(Cl)c3)sc2C(=O)O)C(C)C)CC1 | 1a |  |  | <0.5 µM
C=CC1CC1(NC(=O)[C@@H]1C[C@@H](Oc2cc(-c3ccccc3)nc3cc(OC)ccc23)CN1C(=O)[C@@H](CC(=O)N1CCCC1)C(C)(C)C)C(=O)O |  |  |  | >10 µM
CCOc1nc(NCc2ccc(F)cc2)nc2ccc(-c3ccc(N4CCC(O)C4=O)cc3)nc12 |  |  |  | <0.1 µM
CCOc1nc(NCc2nccs2)nc2ccc(-c3ccc(F)cc3)nc12 |  |  |  | <0.1 µM
N/C(=N\OC(=O)N1CCOCC1)c1ccc(Cl)cc1 |  |  | Huh7 | 1.52 µM
CC(C)c1cccc(C(F)(F)F)c1-c1cc(-c2cccc(NC(=O)C(Cl)Cl)c2)on1 |  |  |  | ≤10 µM
COc1ccc(C(=O)O/N=C(\N)Cc2ccc([N+](=O)[O-])cc2)c(OC)c1 |  |  | Huh7 | 1.82 µM
COC(=O)c1cnccc1Nc1nc(-c2cc(Cl)ccc2F)nc2ncccc12 |  |  | Huh7 | 19 µM